Test system: Influenza

hydroxypropyl methylcellulose trimellitate [HPMCT]
Therapeutic Index (CC50/IC50): >2

Source: US20070148124A1, “Cellulose and acrylic based polymers and the use thereof for the treatment of infectious diseases” (priority 2004, published 2007)
